Anti-infective test results gathered from many reports (values: NIAID ChemDB through PubChem).

Shared fields: whole-cell or culture tests; organism: HIV-1; measure: EC50

An empty or dashed field is not shown.

SMILES	cell line	mutations	strain	read by	value
CC(C)C1=C2[C@H]3CC[C@@H]4[C@@]5(C)CC[C@H](OC(=O)[C@H]6C[C@@H](C(=O)O)C6(C)C)C(C)(C)[C@@H]5CC[C@@]4(C)[C@]3(C)CC[C@@]2([C@@H](O)CNCc2ccc3nc[nH]c3c2)CC1=O	MT-2		92HT599	p24 / ELISA	<1 µM
CC[C@H]1COC[C@@H](N(C)C(=O)C(=O)N(C)C)c2nc(C(=O)NCc3ccc(F)cc3)c(O)c(=O)n21	HeLa P4-2	E92Q		single cycle	0.002 µM
Cc1c(OCC2CCC2)c2cc(F)ccc2[nH]c1=O	HeLa + HeLa-MAGI	RT-K103N V108I	NNRTI-resistant (RT K103N V108I)	β-galactosidase	>2 µM
C=CCC(C(=O)O)c1c(-c2ccc(Cl)cc2)c2cc(Br)ccc2[nH]c1=O	C8166			luciferase / reporter gene	<20 µM
O=C(C(=O)N1CCN(C(=O)c2ccccc2)CC1)c1c[nH]c2c(F)ccc(F)c12	HeLa + HELA CD4+/CCR5			luciferase	<10 µM
COCc1nc(Nc2ccc(C#N)cc2)nc(Nc2c(C)cc(/C=C/C#N)cc2C)c1C(=O)NCCN1CCOCC1	MT4 CMV-EGFP		K103N + Y181C		0.0617 µM
C[C@H]1[C@H](O)[C@@H](C)/C=C/C=C/C=C/C=C/C=C/C=C/C=C/[C@H](O[C@@H]2O[C@H](C)[C@@H](O)[C@H](N)[C@@H]2O)C[C@@H]2O[C@](O)(C[C@@H](O)C[C@@H](O)CC[C@H](O)[C@@H](O)C[C@@H](O)CC(=O)O[C@H]1C)C[C@H](O)[C@H]2C(=O)O	PBMC		92UG029 CLADE A X4 (SI)	p24 / RT activity	1.5 µM
N#Cc1cc2ccc(OC[C@@H]3CCCN3)cc2n(-c2ccc([N+](=O)[O-])cc2)c1=O	MT-4		IIIB	GFP / reporter gene	2.82 µM
CCCC(C(=O)O)c1c(C)nc2ccc(Cl)cc2c1-c1ccc(C)cc1	C8166			luciferase / reporter gene	<20 µM
COc1ccc(S(=O)(=O)N(CC(C)C)C[C@@H](O)CC(=O)N2CSCC2C(=O)NC(C)(C)C)cc1	CEM		IIIB	p24	<1 µM
CC(C)C1=C2[C@H]3CC[C@@H]4[C@@]5(C)CC[C@H](OC(=O)[C@H]6C[C@@H](C(=O)O)C6(C)C)C(C)(C)[C@@H]5CC[C@@]4(C)[C@]3(C)CC[C@@]2(CCN(CCN(C)C)Cc2ccncn2)CC1=O	MT-2		92HT599	p24 / ELISA	<1 µM
C/C(=N\NC(=O)c1ccccc1)c1cn(S(=O)(=O)c2ccc(C)cc2)c2ccccc12	C8166		IIIB	syncytia / visual reading	0.93 µg/mL
COc1ccc(S(=O)(=O)N(CC(C)C)C[C@@H](O)CCN(CC2CCCC2)S(=O)(=O)C2CCC(OC)OC2)cc1	CEM		IIIB	p24	<1 µM
CCC(=O)c1ccc(F)c([C@@H]2C[C@@H]2NC(=O)Nc2ccc(C#N)cn2)c1O	TZM-bl	NNRTI-resistant (RT N348I)	LAI	β-galactosidase / luminescence	0.00099 µM
O=C(C(=O)N1CCN(C(=O)c2ccc(Cl)cc2S)CC1)c1c[nH]c2cccc(Cl)c12	HeLa + HELA CD4+/CCR5			luciferase	<10 µM
Cc1ccc(S(=O)(=O)n2cc(/C=N/NC(=O)c3ccccc3)c3cc([N+](=O)[O-])ccc32)cc1	C8166		IIIB	syncytia / visual reading	20.82 µg/mL
CC#CCOC(C(=O)O)c1c(C)nc2ccc(Br)cc2c1-c1ccc(Cl)cc1	C8166			luciferase / reporter gene	<20 µM
C/C(=N\NC(=O)c1ccccc1)c1cn(S(=O)(=O)c2ccc(Cl)cc2)c2ccccc12	C8166		IIIB	syncytia / visual reading	125 µg/mL
CCCC1CN(C(=O)C(=O)c2c[nH]c3c(C(=O)OC)cccc23)CCN1C(=O)c1ccccc1	HeLa + HELA CD4+/CCR5			luciferase	<10 µM
CC(C)CN(CC(O)CN(CC(C)C)S(=O)(=O)c1ccc(N)cc1)S(=O)(=O)c1ccccc1	CEM		IIIB	p24	<1 µM
Cc1nc2ccc(Cl)cc2c(-c2cccc3ccccc23)c1C(OC(C)C)C(=O)O	C8166			luciferase / reporter gene	<20 µM
N#CC1=CC2Nc3ccccc3C2N(c2ccc([N+](=O)[O-])cc2)C1=O	HeLa		G-3	GFP / fluorescence	0.32 µM
COc1ccc(S(=O)(=O)N(CC2CCCC2)C[C@@H](O)CN(CCc2ccc(O)cc2)C(=O)O[C@H]2CCOC2)cc1	CEM		IIIB	p24	<0.1 µM
COCCNC(=O)c1c(COC)nc(Nc2ccc(C#N)cc2)nc1Oc1c(C)cc(/C=C/C#N)cc1C	MT4 CMV-EGFP		IIIB		0.00288 µM
CC(C)CS[C@@H]1C[C@H](n2cnc3c(N)ncnc32)[C@@H](O)[C@H]1O	CEM		IIIB	cytopathic effect / syncytia / trypan blue	>50 µg/mL
C/C(=N\NC(=O)c1ccccc1)c1cn(S(=O)(=O)c2ccc(Cl)cc2)c2cc(C)ccc12	C8166		IIIB	syncytia / visual reading	2.51 µg/mL
N#Cc1cc2c3c(ccc2n(-c2ccc([N+](=O)[O-])cc2)c1=O)OCO3	MT-4		IIIB	GFP / reporter gene	1.68 µM
CC(C)CCC[C@@H](C)[C@H]1CCC2C3CCC4C[C@@H](O[C@H]5O[C@H](COS(=O)(=O)[O-])[C@@H](OS(=O)(=O)[O-])[C@H](OS(=O)(=O)[O-])[C@@H]5O[C@H]5O[C@H](COS(=O)(=O)[O-])[C@@H](OS(=O)(=O)[O-])[C@H](O[C@H]6O[C@H](COS(=O)(=O)[O-])[C@@H](OS(=O)(=O)[O-])[C@H](O[C@H]7O[C@H](COS(=O)(=O)[O-])[C@@H](OS(=O)(=O)[O-])[C@H](OS(=O)(=O)[O-])[C@@H]7OS(=O)(=O)[O-])C6OS(=O)(=O)[O-])[C@@H]5OS(=O)(=O)[O-])CC[C@]4(C)C3CC[C@@]21C	H9		IIIB	p24 / ELISA / antigen	7 µg/mL
C/C(=N\NC(=O)c1ccccc1)c1cn(S(=O)(=O)c2ccc(C)cc2)c2cc(C)ccc12	C8166		IIIB	syncytia / visual reading	1.65 µg/mL
Cc1cc(O)c(O)c(O)c(=O)c1	CEM-SS		RF	cytopathic effect / absorbance	>50 µM
CC(C)C1=C2[C@H]3CC[C@@H]4[C@@]5(C)CC[C@H](OC(=O)[C@H]6C[C@@H](C(=O)O)C6(C)C)C(C)(C)[C@@H]5CC[C@@]4(C)[C@]3(C)CC[C@@]2(CC(=O)NCc2ccc(OCCN3CCOCC3)cc2)CC1=O	MT-2		92HT599	p24 / ELISA	<1 µM
CCOC(=O)c1c(C)cc(=O)c(O)c(O)c1O	CEM-SS		RF	cytopathic effect / absorbance	0.77 µM
CC(C)c1c(OC#CC2CC2)c2cc(Cl)ccc2[nH]c1=O	HeLa + HeLa-MAGI	RT-K103N Y181C	NNRTI-resistant (RT K103N Y181C)	β-galactosidase	0.62 µM
CCN(C(=O)C(=O)N(C)C)[C@@H]1CC[C@H](OC)Cn2c1nc(C(=O)NCc1ccc(F)cc1)c(O)c2=O	HeLa P4-2	G140S/Q148H		single cycle	0.002 µM
CN1c2ccccc2C2C1C=C(C#N)C(=O)N2c1ccc([N+](=O)[O-])cc1	HeLa		F-93BR20	GFP / fluorescence	0.03 µM
COCc1nc(Nc2ccc(C#N)cc2)nc(Nc2c(C)cc(/C=C/C#N)cc2C)c1C(=O)NCCc1cccs1	MT4 CMV-EGFP		MDR		1.62 µM
COC(C(=O)O)c1c(C)nc2ccc(Cl)cc2c1-c1ccc(C)cc1	C8166			luciferase / reporter gene	<20 µM
COc1ccc(S(=O)(=O)N(CC(C)C)C[C@@H](O)CCN(CC2CCCC2)S(=O)(=O)c2cccc(N)c2)cc1	CEM		IIIB	p24	<0.1 µM
CO[C@]1(C)CC[C@@H](N(C)C(=O)C(=O)N(C)C)c2nc(C(=O)NCc3ccc(F)c(C)c3)c(O)c(=O)n2C1	HeLa P4-2	Q148R		single cycle	0.001 µM
COCc1nc(Nc2ccc(C#N)cc2)nc(Oc2c(C)cc(/C=C/C#N)cc2C)c1C(=O)NCc1ccncc1	MT4 CMV-EGFP		MDR		1.23 µM
CC[C@H]1COC[C@H](N(C)C(=O)C(=O)N(C)C)c2nc(C(=O)NCc3ccc(F)cc3)c(O)c(=O)n21	HeLa P4-2	Y143R		single cycle	0.002 µM
C[C@@H]1CN(C(=O)c2ccccn2)CCN1C(=O)C(=O)c1c[nH]c2cccc(Br)c12	HeLa + HELA CD4+/CCR5			luciferase	~10 µM
N#Cc1cc2ccc(OC[C@H]3CCCN3)cc2n(-c2ccc([N+](=O)[O-])cc2)c1=O	MT-4		IIIB	GFP / reporter gene	2.04 µM
Cc1cc(CNC(=O)c2nc3n(c(=O)c2O)[C@H](C)COC[C@@H]3N(C)C(=O)C(=O)N(C)C)ccc1F	HeLa P4-2	N155H		single cycle	0.003 µM
CCNc1c(C#N)c(=O)n(-c2ccc([N+](=O)[O-])cc2)c2ccccc12	MT-4		IIIB	GFP / reporter gene	32.4 µM
CC(C)C1=C2[C@H]3CC[C@@H]4[C@@]5(C)CC[C@H](OC(=O)[C@H]6C[C@@H](C(=O)O)C6(C)C)C(C)(C)[C@@H]5CC[C@@]4(C)[C@]3(C)CC[C@@]2(CC(=O)NCc2cccnc2)CC1=O	MT-2		92HT599	p24 / ELISA	<1 µM
CCCC(C(=O)O)c1c(C(C)C)nc2ccc(Br)cc2c1-c1ccc(Cl)cc1	C8166			luciferase / reporter gene	<20 µM
[2H]C(CCN)(CNCC[C@@]12CC[C@]3(C)[C@H](CC[C@@H]4[C@@]5(C)CC[C@H](OC(=O)[C@H]6C[C@@H](C(=O)O)C6(C)C)C(C)(C)[C@@H]5CC[C@]43C)C1=C(C(C)C)C(=O)C2)NC(=O)c1ccc(Cl)cc1	MT-2		92HT599	p24 / ELISA	<1 µM
COc1ccc(S(=O)(=O)N(CC(C)C)CC(O)CN[C@H]2c3ccccc3CC2O)cc1	CEM		IIIB	p24	<1 µM
CC(C)CN(C[C@@H](O)[C@H](Cc1ccccc1)NC(=O)O[C@H]1CO[C@H]2OCC[C@H]21)S(=O)(=O)c1ccc(C(N)=O)cc1	MT-4		LAI	p24 / luminescence	0.038 µM
COCc1nc(Nc2ccc(C#N)cc2)nc(Nc2c(C)cc(/C=C/C#N)cc2C)c1C(=O)NCc1cccnc1	MT4 CMV-EGFP		K103N + Y181C		0.0132 µM
Cc1ccc(CNC(=O)c2nc3n(c(=O)c2O)C(C)CCCC3N(C)C(=O)C(=O)N(C)C)cc1F	HeLa P4-2	Y143R		single cycle	0.001 µM
O=C(C(=O)N1CCN(C(=O)c2ccc(Br)o2)CC1)c1c[nH]c2cccc(F)c12	HeLa + HELA CD4+/CCR5			luciferase	<10 µM
COCc1nc(Nc2ccc(C#N)cc2)nc(Nc2c(C)cc(/C=C/C#N)cc2C)c1C(=O)NCC(OC)OC	MT4 CMV-EGFP		K103N+Y101C		0.0141 µM
CC(C)C1=C2[C@H]3CC[C@@H]4[C@@]5(C)CC[C@H](OC(=O)[C@H]6C[C@@H](C(=O)O)C6(C)C)C(C)(C)[C@@H]5CC[C@@]4(C)[C@]3(C)CC[C@@]2([C@@H](O)CNC(=O)C(C)(C)NC(=O)c2ccc(OCCN3CCOCC3)cc2)CC1=O	MT-2		92HT599	p24 / ELISA	<1 µM
CNCCCOc1ccc2cc(C#N)c(=O)n(-c3ccc([N+](=O)[O-])cc3)c2c1	MT-4		IIIB	GFP / reporter gene	0.23 µM
COCCNC(=O)c1c(COC)nc(Nc2ccc(C#N)cc2)nc1Nc1c(C)cc(/C=C(\C)C#N)cc1C	MT4 CMV-EGFP		K103N + Y181C		0.0195 µM
Cc1nc2ccc(Cl)cc2c(-c2cncnc2)c1C(OC(C)C)C(=O)O	C8166			luciferase / reporter gene	<20 µM
O=C(C(=O)N1CCN(C(=O)c2ccccn2)CC1)c1c[nH]c2cccc(Cl)c12	HeLa + HELA CD4+/CCR5			luciferase	<10 µM
O=C(N/N=C/c1cn(S(=O)(=O)c2ccc(Cl)cc2)c2ccccc12)c1ccccc1	C8166		IIIB	syncytia / visual reading	9.92 µg/mL
NC(N)=NCCC[C@H](N)C(=O)NC[C@@H]1OC(O[C@H]2[C@@H](O)[C@H](O[C@@H]3[C@@H](O)[C@H](NC(=O)[C@@H](N)CCCN=C(N)N)C[C@H](NC(=O)[C@@H](N)CCCN=C(N)N)[C@H]3O[C@H]3O[C@H](CNC(=O)[C@@H](N)CCCN=C(N)N)[C@@H](O)[C@H](O)[C@H]3NC(=O)[C@@H](N)CCCN=C(N)N)O[C@@H]2CO)[C@H](NC(=O)[C@@H](N)CCCN=C(N)N)[C@@H](O)[C@@H]1O	MT-2		C (syncytium-inducing)	p24 / RT activity	1.8 µM

9 of the rows above, restated:

{"SMILES": "CCCC(C(=O)O)c1c(C(C)C)nc2ccc(Br)cc2c1-c1ccc(Cl)cc1", "cell line": "C8166", "read by": "luciferase / reporter gene", "value": "<20 µM"}
{"SMILES": "CNCCCOc1ccc2cc(C#N)c(=O)n(-c3ccc([N+](=O)[O-])cc3)c2c1", "cell line": "MT-4", "strain": "IIIB", "read by": "GFP / reporter gene", "value": "0.23 µM"}
{"SMILES": "CC[C@H]1COC[C@@H](N(C)C(=O)C(=O)N(C)C)c2nc(C(=O)NCc3ccc(F)cc3)c(O)c(=O)n21", "cell line": "HeLa P4-2", "mutations": "E92Q", "read by": "single cycle", "value": "0.002 µM"}
{"SMILES": "COCc1nc(Nc2ccc(C#N)cc2)nc(Oc2c(C)cc(/C=C/C#N)cc2C)c1C(=O)NCc1ccncc1", "cell line": "MT4 CMV-EGFP", "strain": "MDR", "value": "1.23 µM"}
{"SMILES": "C=CCC(C(=O)O)c1c(-c2ccc(Cl)cc2)c2cc(Br)ccc2[nH]c1=O", "cell line": "C8166", "read by": "luciferase / reporter gene", "value": "<20 µM"}
{"SMILES": "O=C(C(=O)N1CCN(C(=O)c2ccccc2)CC1)c1c[nH]c2c(F)ccc(F)c12", "cell line": "HeLa + HELA CD4+/CCR5", "read by": "luciferase", "value": "<10 µM"}
{"SMILES": "C/C(=N\\NC(=O)c1ccccc1)c1cn(S(=O)(=O)c2ccc(Cl)cc2)c2ccccc12", "cell line": "C8166", "strain": "IIIB", "read by": "syncytia / visual reading", "value": "125 µg/mL"}
{"SMILES": "CC#CCOC(C(=O)O)c1c(C)nc2ccc(Br)cc2c1-c1ccc(Cl)cc1", "cell line": "C8166", "read by": "luciferase / reporter gene", "value": "<20 µM"}
{"SMILES": "CCCC(C(=O)O)c1c(C)nc2ccc(Cl)cc2c1-c1ccc(C)cc1", "cell line": "C8166", "read by": "luciferase / reporter gene", "value": "<20 µM"}

Rows are shuffled and stem from different studies. ECn is the concentration giving n% inhibition of infection, replication or growth.